23 compounds from PubChem BioAssay AID1619 (SRMLSC, 2009) can be followed below.

By UniProt entry, the sequences of proteins in these tests, tags left out. Where a name states a change or a piece, a line headed by the entry shows the natural chain unless it says otherwise.
UniProt Q8IL11: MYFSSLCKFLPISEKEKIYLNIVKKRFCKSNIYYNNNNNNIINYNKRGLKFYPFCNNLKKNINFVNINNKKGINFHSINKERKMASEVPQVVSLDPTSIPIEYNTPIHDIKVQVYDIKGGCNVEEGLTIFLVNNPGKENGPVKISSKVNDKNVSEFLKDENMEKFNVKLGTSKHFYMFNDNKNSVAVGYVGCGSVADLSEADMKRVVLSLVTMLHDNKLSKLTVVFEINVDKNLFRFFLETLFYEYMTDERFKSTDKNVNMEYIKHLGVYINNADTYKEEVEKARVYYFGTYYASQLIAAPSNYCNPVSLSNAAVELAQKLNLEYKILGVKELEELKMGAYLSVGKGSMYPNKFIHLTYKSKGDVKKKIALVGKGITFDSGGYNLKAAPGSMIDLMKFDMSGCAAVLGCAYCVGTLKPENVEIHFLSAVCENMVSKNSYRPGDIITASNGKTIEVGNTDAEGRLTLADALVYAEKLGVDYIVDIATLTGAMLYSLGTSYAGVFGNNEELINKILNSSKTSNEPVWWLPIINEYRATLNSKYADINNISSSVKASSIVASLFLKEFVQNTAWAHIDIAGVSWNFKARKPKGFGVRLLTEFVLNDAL

The structures appear in SMILES notation. The list shows a part of the results. Measured potencies and affinities stand elsewhere. Active and inactive are the calls of the source.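 How the source made its calls: active means compound inhibiting the enzyme by more than half at any dose during confirmatory dose-response retesting; inconclusive means strong single-dose inhibitors picked by rank but not retested; inactive means the rest.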

This test has as its target Leucine aminopeptidase (Plasmodium falciparum (isolate 3D7)) (UniProt Q8IL11). Put plainly: P. falciparum M17LAP inhibitors, primary screen, biochemical, fluorogenic H-Leu-NHMec substrate, 1536-well (AID 1619).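 Further: plate controls were full reaction with DMSO carrier for no effect and no enzyme background for full effect.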 The conditions noted are these: recombinant M17LAP, H-Leu-NHMec fluorogenic kinetic assay; at 30 µM; active compounds read high.
For `Cc1c2c(nc3ccccc13)SC(C(Cl)Cl)C2` (stereo not drawn), the inhibition (as a rule, the drop in the measured response relative to a control, in per cent) is inactive: 2.33%.

Regarding `O=C(OC1CN2CCC1CC2)C12CC3CC(CC(C3)C1)C2` (stereo not drawn), the inhibition was inactive: 1.69%.

With `Cc1cc(=O)[nH]c(N[N+](=O)[O-])n1`, the inhibition is inactive: 2.54%.

As to `COc1ccc(N/C(=N/P(=O)(N2CCOCC2)N2CCOCC2)N2CCOCC2)cc1`, the inhibition is inactive: 10.7%.

On to `Cc1ccc(OP(=O)(Nc2ccc([N+](=O)[O-])cn2)Oc2ccc(C)cc2)cc1`, for which the inhibition is inactive: -4.54%.

Turning to `Cc1ccc2nc3c(c(C)c2c1)CC(C(Cl)Cl)S3` (stereo not drawn), the inhibition is inactive: -10.2%.

Consider `O=[As](O)(c1ccc(O)cc1)c1ccccc1O`, for which the inhibition is inactive: 21.3%.

Turning to `C[As](=O)(O)c1cccc(C(=O)O)c1`, the inhibition was inactive: -4.16%.

`CCN(CC)C(=S)SC(NC=O)C(Cl)(Cl)Cl` (stereo not drawn): the inhibition was inactive: -8.46%.

As for `CC(C)NC(=O)NP(=O)(Oc1ccccc1)Oc1ccccc1`, the inhibition is inactive: -1.75%.

Turning to `O=[N+]([O-])c1cc([N+](=O)[O-])c(-c2ccn[nH]2)s1`, the inhibition is inactive: 13.7%.

Take `ClCCSc1nnc(-c2cccnc2)o1`: the inhibition was inactive: 26.4%.

For `CC(C)c1ccc(OP(=O)(Nc2ccccn2)Oc2ccccc2F)cc1` (stereo not drawn), the inhibition was inactive: -6.26%.

In the case of `Cc1cc(SC(NC(=O)c2ccccc2)C(Cl)(Cl)Cl)nc(C(C)C)n1` (stereo not drawn), the inhibition is inactive: 6.27%.

For the compound `CCOC(=O)Nc1ccc([As](=O)(O)O)c(O)c1`, the inhibition was inactive: 2.3%.

As for `O=P(Nc1ccccn1)(c1cccc2ccccc12)c1cccc2ccccc12`, the inhibition was inactive: -4.99%.

Turning to `Cc1cc(SC(NC=O)C(Cl)(Cl)Cl)ncn1` (stereo not drawn), the inhibition is inactive: -0.23%.

Consider `O=[N+]([O-])c1ccc(Nc2ccc(Oc3ccc([N+](=O)[O-])cc3[N+](=O)[O-])cc2)c([N+](=O)[O-])c1`, for which the inhibition is inactive: -1.33%.

For `CCOC(=O)Nc1cccc([As](=O)(O)O)c1`, the inhibition is inactive: -4.42%.

In the case of `O=C(COc1ccccc1)OC1CN2CCC1CC2` (stereo not drawn), the inhibition was inactive: 2.28%.

Turning to `COP1(=S)c2c(C)nn(CCC#N)c2N=C(c2ccc(F)cc2)N1C` (stereo not drawn), the inhibition was inactive: 2.7%.

With `CCC(C)N(CC(C)C)C(=S)SC(NC(C)=O)C(Cl)(Cl)Cl` (stereo not drawn), the inhibition was inactive: 0.42%.

For `CCOC(=O)c1ccc(NC(=O)C(C)(CCl)SC)cc1` (stereo not drawn), the inhibition was inactive: -0.38%.
